Anti-infective test results gathered from many reports (values: NIAID ChemDB through PubChem).

Common to all: growth or infection tests; agent: Mycobacterium tuberculosis

A number after MIC or MFC names an inhibition level or a share of isolates. Percent inhibition refers to the dose given; in toxicity tests it is the harm to the cells. Blank or dashed fields: not listed here. MIC bound: limit read from a one-dose screen. ECn: concentration that inhibits the pathogen or its effect by n%. Lines come from different laboratories, so protocols vary.

compound,strain or isolate,changes,read by,measure,dose,result
Cc1cccc(/C=N/NC(=S)N(C)C)n1.[Cl][Cu][Cl],KZN494,,,MIC90,,0.78 µM
C=C(NC(=O)c1csc(-c2nc3c(cc2O)-c2nc(cs2)C(=O)N[C@@H]([C@@H](C)O)C(=O)N/C(=C(\C)OC)c2nc(cs2)C(=O)N[C@@H]2c4nc(cs4)C(=O)N[C@@H](COC(=O)c4c5c6c(cccc6n4O)COC(=O)[C@@H](O[C@H]4C[C@](C)(O)[C@H](N(C)C)[C@H](C)O4)[C@H]2OC5)c2nc-3cs2)n1)C(N)=O,Clinical isolate 12556,,broth dilution,MIC,,≤2.5 µM
COC1=NS(=O)(=O)C2CCCCCCC2O1,H37Rv,,resazurin,MIC bound,,>6.25 µg/mL
NC1CCN(c2c(F)cc3c(=O)c(C(=O)O)cn(C4CC4)c3c2Cl)C1,H37Rv,,,MIC,,0.01 µg/mL
CCCCCCOc1cccc(NC(=O)OCCN(C)C)c1,My 331/88,,,MIC,,16 µM
Cc1c[n+](=O)c(C)cn1[O-],H37Rv,,BACTEC,MIC bound,,>12.5 µg/mL
COc1ccccc1N=Nc1c(O)c2ccc([N+](=O)[O-])cc2[nH]c1=O,H37Rv,,resazurin,MIC,,<6.25 µg/mL
CCC1=C(C)C(=O)OC1n1ccc(=O)[nH]c1=O,H37Rv,,BACTEC,MIC bound,,>12.5 µg/mL
CC1=C(C(=O)Nc2ccc([N+](=O)[O-])cc2)C(c2c3ccccc3cc3ccccc23)C(C(=O)Nc2ccccc2F)=C(C)N1,H37Rv,,,MIC,,>6.25 µg/mL
CCCCCCCCOc1cccc(NC(=O)OCCN(C)C)c1,My 331/88,,,MIC,,8 µM
O=c1oc2ccc(Br)cc2cc1-c1cs/c(=N/N=C/c2cc([N+](=O)[O-])ccc2O)n1C1CCCCC1,H37Rv,,,EC50,,>6.25 µg/mL
CP(=O)(NN)c1ccccc1,H37Rv,,BACTEC,MIC bound,,>12.5 µg/mL
O=c1oc2ccc(Br)cc2cc1-c1cs/c(=N/N=C/c2ccc(Br)cc2)n1C1CCCCC1,H37Rv,,,EC50,,>6.25 µg/mL
CCCOc1cc2oc3cc(O)c(CCC(C)C)c(O)c3c(=O)c2c(CCC(C)C)c1OC,M21,MDR,resazurin,MIC,,6.25 µg/mL
COC(=O)C1=C(C)N(c2ccccc2)C(C)=C(C(=O)OC)C1c1cccc(Oc2ccccc2)c1,H37Rv,,,MIC,,>6.25 µg/mL
CCOc1cc2oc3cc(O)c(CCC(C)C)c(O)c3c(=O)c2c(CCC(C)C)c1OC,M21,,resazurin,MIC,,3.12 µg/mL
COc1ccc(/C=N/N=c2\scc(-c3cc4cc(Br)ccc4oc3=O)n2C2CCCCC2)cc1,H37Rv,,,EC50,,<6.25 µg/mL
COc1ccc(S(=O)(=O)c2ccccc2[N+](=O)[O-])cc1,H37Rv,,BACTEC,MIC bound,,>12.5 µg/mL
CO[C@H]1/C=C/O[C@@]2(C)Oc3c(C)c(O)c4c(O)c(c(/C=N/N5CCN(C)CC5)c(O)c4c3C2=O)NC(=O)/C(C)=C\C=C\[C@H](C)[C@H](O)[C@@H](C)[C@@H](O)[C@@H](C)[C@H](OC(C)=O)[C@@H]1C,M-4,MDR,resazurin,MIC,,>2 µg/mL
O=c1oc2ccccc2cc1-c1cs/c(=N\N=C\c2cc([N+](=O)[O-])ccc2O)n1C1CCCCC1,H37Rv,,,inhibition,6.25 µg/mL,24%
CC1=C(C(=O)Nc2ccc(Cl)cc2)C(c2ccc(Cl)cc2Cl)C(C(=O)Nc2ccc(Cl)cc2)=C(C)N1,H37Rv,,,MIC,,>12.5 µg/mL
NNC(=O)c1ccncc1,Clinical isolate 11677,,broth dilution,MIC,,≤0.2 µM
NNC(=O)c1ccncc1,Isolate G0,,,MIC,,0.031 µg/mL
O=C1c2cc(C(F)(F)F)ccc2-n2c1nc1ccccc1c2=O,H37Rv,,,MIC,,0.015 µg/mL
COc1ccc(C2C(C(=O)Nc3cccc([N+](=O)[O-])c3)=C(C)NC(C)=C2C(=O)Nc2cccc([N+](=O)[O-])c2)cc1OC,H37Rv,,,MIC,,>6.25 µg/mL
C=CCOc1cc2oc3cc(O)c(CCC(C)C)c(O)c3c(=O)c2c(CCC(C)C)c1OC,M16,MDR,resazurin,MIC,,3.12 µg/mL
CO[C@H]1/C=C/O[C@@]2(C)Oc3c(C)c(O)c4c(O)c(c(/C=N/N5CCN(C)CC5)c(O)c4c3C2=O)NC(=O)/C(C)=C\C=C\[C@H](C)[C@H](O)[C@@H](C)[C@@H](O)[C@@H](C)[C@H](OC(C)=O)[C@@H]1C,Clinical isolate 10367,,broth dilution,MIC,,≤0.1 µM
CC(NCCNCc1ccc(C(F)(F)F)cc1)c1c[nH]c2ccccc12,,,,MIC,,25 µM
O=C1c2cc(I)ccc2-n2c1nc1cc(Cl)cc(Cl)c1c2=O,H37Rv,,,MIC,,0.13 µg/mL
NNC(=O)C1CC2=C(C1)CC(C(=O)NN)C2,H37Rv,,BACTEC,MIC,,≥12.5 µg/mL
C=C1C(=O)O[C@@H]2C[C@@]3(C)CCC[C@H](C)[C@@]34O[C@H]4[C@H]12,H37Rv,,,MIC,,8 µg/mL
CC1=C(C)/C(=C/c2ccccn2)NC1=O,H37Rv,,BACTEC,inhibition,12.5 µg/mL,19%
C/C(=C\CN(C(C)C)C(C)C)CCC[C@H](C)CCC[C@H](C)CCCC(C)C,H37Rv,,,MIC,,64 µg/mL
Cc1ccc(N=Nc2c(O)c3ccc(Cl)c(Cl)c3[nH]c2=O)cc1,H37Rv,,resazurin,inhibition,6.25 µg/mL,54%
COc1c(O)cc2oc3cc(O)c(CCC(C)C)c(O)c3c(=O)c2c1CCC(C)C,M21,MDR,resazurin,MIC,,3.12 µg/mL
O=C1c2cc(F)ccc2-n2c1nc1ccc(Cl)cc1c2=O,H37Rv,,,MIC,,0.06 µg/mL
CC/C(=N\NC(=S)SC)c1ccccn1,H37Rv,,BACTEC,inhibition,128 µg/mL,100%
CC1=CCC[C@@]2(C)O[C@H]2[C@H]2OC(=O)[C@@H](C)[C@@H]2CC1,H37Rv,,,MIC,,128 µg/mL
CO[C@H]1/C=C/O[C@@]2(C)Oc3c(C)c(O)c4c(O)c(c(/C=N/N5CCN(C)CC5)c(O)c4c3C2=O)NC(=O)/C(C)=C\C=C\[C@H](C)[C@H](O)[C@@H](C)[C@@H](O)[C@@H](C)[C@H](OC(C)=O)[C@@H]1C,,531Trp,,MIC99,,≥640 µg/mL
CCCCCCc1ccc2c(c1)C(=O)c1nc3ccncc3c(=O)n1-2,H37Rv,,,MIC,,0.06 µg/mL
COc1ccc(N=Nc2c(O)c3cccc([N+](=O)[O-])c3[nH]c2=O)c(C)c1,H37Rv,,resazurin,inhibition,6.25 µg/mL,45%
CC1=C(C(=O)Nc2cccc(C(F)(F)F)c2)C(c2cccc(Oc3ccccc3)c2)C(C(=O)Nc2cccc(C(F)(F)F)c2)=C(C)N1,H37Rv,,,MIC,,>6.25 µg/mL
CC(=O)NC[C@H]1CN(c2ccc(N3CCN(c4ccc([N+](=O)[O-])s4)CC3)c(F)c2)C(=O)O1,ATCC,,,MIC,,<0.125 µg/mL
CCOc1cc2oc3cc(=O)/c(=C(\C)O)c(CC=C(C)C)c3c(O)c2c(=O)c1CC=C(C)C,H37Ra,,resazurin,MIC,,6.25 µg/mL
CC(=O)c1ccc(N=Nc2c(O)c3ccccc3n(C)c2=O)cc1,H37Rv,,resazurin,MIC,,>6.25 µg/mL
COc1cc(O)c2c(=O)c(O)c(-c3ccc(O)c(O)c3)oc2c1,H37Rv,,BACTEC,MIC,,≥128 µg/mL
CCCCCCCCCCCNCCNCc1cccc2ccccc12,,,,MIC,,25 µM
O=C(Nc1ccc(Cl)cc1)Sc1nnc2c(n1)[nH]c1ccccc12,H37Rv,,BACTEC,MIC bound,,>6.25 µg/mL
C=CCOc1cc2oc3cc(OCC=C)c(C(C)=O)c(CCC(C)C)c3c(=O)c2c(O)c1CCC(C)C,H37Ra,,resazurin,MIC,,>200 µg/mL
CC1=C(C(=O)Nc2ccccc2)C(c2cccc([N+](=O)[O-])c2)C(C(=O)Nc2ccc(Cl)cc2)=C(C)N1,H37Rv,,,MIC,,>6.25 µg/mL
CC(C)[C@](O)(C(=O)OCC1=CC[N+]2([O-])CC[C@@H](O)[C@@H]12)[C@H](C)O,H37Rv,,BACTEC,inhibition,12.8 µg/mL,67%
C[C@H](O)CNCCNCCc1c[nH]c2ccccc12,,,,MIC,,25 µM
COc1cc2c(cc1Oc1ccc(OC)c3c1CC1c4c(cc(OC)c(OC)c4-3)CCN1C)CC1c3c(cc(OC)c(OC)c3-2)CCN1C,H37Rv,,BACTEC,MIC bound,,≤12.5 µg/mL
O=C1c2cc(I)ccc2-n2c1nc1ncccc1c2=O,TN772RFLF:AB (MDR),,,MIC,,0.06 µg/mL
CCCCCOc1ccccc1NC(=O)OCCN1CCCCC1,My 331/88,,,MIC,,16 µM
CCCCC(CC)CN1CN(CC(CC)CCCC)CC(C)(NCCNCc2ccccc2)C1,,,,MIC,,25 µM
CCCCCCCOc1ccc(NC(=O)OCCN2CCCCC2)cc1,My 331/88,,,MIC,,16 µM
CC1(C)C(=O)CC[C@]23C[C@]24CC[C@]2(C)[C@@H](C(C)(C)CCC=O)CC[C@@]2(C)C4CCC13,H37Rv,,,MIC,,>128 µg/mL
COc1cc2oc3cc(O)c(CCC(C)C)c(O)c3c(=O)c2c(CCC(C)C)c1OC,M21,,resazurin,MIC,,1.56 µg/mL
CCCCCCCOc1ccc(NC(=O)OCC[NH+]2CCCC2)cc1,My 331/88,,,MIC,,32 µM
OCC(O)COCCCCCCCCCCCCCC1C=CCC1,H37Rv,,BACTEC,MIC bound,,≤12.5 µg/mL
CCCCCCCCCCCNCCNCCc1ccc(O)cc1,,,,MIC,,25 µM
CO/C(C)=C1/NC(=O)[C@H]([C@@H](C)O)NC(=O)c2csc(n2)-c2cc(O)c(-c3nc(C(=O)NCCCN4CCOCC4)cs3)nc2-c2csc(n2)[C@@H]2COC(=O)c3c4c5c(cccc5n3O)COC(=O)[C@@H](O[C@H]3C[C@](C)(O)[C@H](N(C)C)[C@H](C)O3)[C@@H](OC4)[C@H](NC(=O)c3csc1n3)c1nc(cs1)C(=O)N2,Clinical isolate 11677,,broth dilution,MIC,,≤25 µM
C=C1C(=O)O[C@@H]2C[C@@]3(C)CCCC4(CC4)[C@@H]3C[C@H]12,H37Rv,,,MIC,,32 µg/mL
O=C(C[n+]1ccccc1)N/N=C(\CCC(=O)N(Cc1ccccc1)Cc1ccccc1)CC(=O)c1ccccc1.[Cl-],H37Rv,,BACTEC,MIC bound,,>12.5 µg/mL
CC(C)(CO)NCCNCCc1c[nH]c2ccccc12,,,,MIC,,25 µM
CCCCOc1ccc(NC(=O)OCCN2CCCCC2)cc1,My 331/88,,,MIC,,125 µM
COc1ccc(OC)c(CCNCCNC2CCCCCCC2)c1,,,,MIC,,50 µM
NNC(=O)CC(N)C(=O)O,H37Rv,,BACTEC,MIC bound,,>12.5 µg/mL
O=C1c2ccccc2-n2c1nc1c(Br)cc(Br)c(F)c1c2=O,H37Rv,,,MIC,,2 µg/mL
NC(=O)C[n+]1cccc(C(N)=O)c1.[Cl-],H37Rv,,BACTEC,MIC bound,,>12.5 µg/mL
CCCCOc1cc2oc3cc(OCCCC)c(C(C)=O)c(CCC(C)C)c3c(=O)c2c(O)c1CCC(C)C,H37Ra,,resazurin,MIC,,>200 µg/mL
O=c1[nH]c2c([N+](=O)[O-])cccc2c(O)c1N=Nc1cccc([N+](=O)[O-])c1,H37Rv,,resazurin,MIC,,<6.25 µg/mL
c1ccc(CCCCNCCNCCC(c2ccccc2)c2ccccc2)cc1,,,,MIC,,12.5 µM
COc1ccc(CC2c3cc(OC)c(OC)c(OC)c3CC[N+]2(C)C)cc1Oc1ccc(CC2c3cc4c(c(OC)c3CC[N+]2(C)C)OCO4)cc1.[I-].[I-],H37Rv,,BACTEC,inhibition,12.5 µg/mL,-4%
COc1ccccc1NC(=O)OCCN(C)C,My 331/88,,,MIC,,1000 µM
O=c1[nH]c2c(Cl)cccc2c(O)c1N=Nc1ccc(Cl)c(Cl)c1,H37Rv,,resazurin,inhibition,6.25 µg/mL,21%
CCN(CC)S(=O)(=O)Nc1c(C)n(C)n(-c2ccccc2)c1=O,H37Rv,,BACTEC,MIC,,≥12.8 µg/mL
CCCCCCCCCOc1ccc(NC(=O)OCCN2CCOCC2)cc1,My 331/88,,,MIC,,16 µM
CCOC(=O)c1[nH]c2ccc(O)c3c2c1CCC3=O,H37Rv,,BACTEC,inhibition,12.5 µg/mL,55%
O=C1c2cc(Cl)ccc2-n2c1nc1ncccc1c2=O,H37Rv,,,MBC,,4 µg/mL